Compound potency records, mixed from different reports. Data source: NIAID ChemDB in PubChem.

Shared fields: whole-cell or culture tests; agent: Mycobacterium tuberculosis

MIC bound comes from a single tested concentration.

compound,strain or isolate,cell line,read by,measure,tested at,value
N/C(=N\N=C\c1ccccc1Br)c1ccncc1,H37Rv,,,MIC,,8 µg/mL
O=C(CCl)c1ccc2ccc3c(c2c1)Nc1ccccc1S3,H37Rv,,BACTEC,MIC bound,,≤12.5 µg/mL
COc1ccc(CNCCNCCC2=CCCCC2)cc1OC,,,,MIC,,50 µM
CCOC(=O)c1cnc2c(ccc3[nH]c(Cl)cc(C)c32)c1=O,H37Rv,,,MIC,,500 µg/mL
COc1c(N2CCNC(C)C2)c(F)cc2c(=O)c(C(=O)O)cn(C3CC3)c12,102 strains,,,MIC,,2 µg/mL
CCCCC(CC)CN1CN(CC(CC)CCCC)CC(C)(NCCNCc2cccc(C)c2)C1,,,,MIC,,6.25 µM
S=C(NCN1CCOCC1)c1cncc(-n2ccnc2)n1,H37Rv,,,MIC,,500 µg/mL
CC(CCc1ccccc1)NCCNC[C@]1(C)CCC[C@]2(C)c3ccc(C(C)C)cc3CC[C@@H]12,,,,MIC,,12.5 µM
O=[N+]([O-])c1ccc(-c2csc(-n3cccc3)n2)cc1,H37Rv,,resazurin,MIC,,0.4 µg/mL
COc1ccc2c(C)cc(N/N=C/c3ccnc4ccccc34)nc2c1,H37Rv,,BACTEC,MIC bound,,≤12.5 µg/mL
C[C@@H]1CC[C@]2(C(=O)O)CC[C@]3(C)C(=CC[C@@H]4[C@@]5(C)C[C@@H](O)[C@H](O)C(C)(C)[C@@H]5CC[C@]43C)[C@@H]2[C@]1(C)O,H37Rv,,,MIC,,32 µM
Cn1cnc2c(NC(=O)Nc3ccc(Cl)cc3)nc(Cl)cc21,H37Rv,,visual reading,MIC99,,25 µM
CCc1nc2ccc(Cl)cn2c1C(=O)NCc1ccc(N2CCC(c3ccc(OC(F)(F)F)cc3)CC2)cc1,N0052,,turbidity,MIC50,,0.0025 µM
Cc1cc(Cl)[nH]c2ccc3c(=O)c(C(=O)NN=Cc4ccccc4O)cnc3c12,H37Rv,,,MIC,,200 µg/mL
O=C(O)c1cn(-c2ccc(F)cc2F)c2cc(N3CCN(C(=O)c4ccco4)CC3)c(F)cc2c1=O,ATCC35801,,,MIC,,6.29 µM
N/C(=N\N=C\c1ccc([N+](=O)[O-])cc1)c1ccncc1,H37Rv,,,MIC,,256 µg/mL
COC(=O)c1cncc(N2CC(C)OC(C)C2)n1,H37Rv,,,MIC,,500 µg/mL
CCN(CC)Cc1c(C)[nH]c2cc(N(C)C)ccc2c1=O,H37Rv,,BACTEC,inhibition,12.5 µg/mL,0%
CC(=O)Nc1ccc(OCC(=O)NN2C(=O)C(C)SC2c2cccc([N+](=O)[O-])c2)cc1,H37Rv,,,inhibition,12.5 µg/mL,27%
CC(=O)OC[C@H]1O[C@@H](NC(=S)Nc2nc(-c3ccccc3)cc(-c3cc(Cl)ccc3O)n2)[C@H](OC(C)=O)[C@@H](OC(C)=O)[C@@H]1OC(C)=O,H37Rv,,resazurin,inhibition,6.25 µg/mL,36%
CC1CCCCN1c1cncc(/C(N)=N/O)n1,H37Rv,,,MIC,,500 µg/mL
Cc1ccc2c(c1)-c1oc(=O)c(C(N)=O)cc1C(C)O2,H37Rv,,BACTEC,inhibition,12.5 µg/mL,28%
CC(=O)Nc1ccc(OCC(=O)NN2C(=O)C(C)SC2c2ccccc2O)cc1,H37Rv,,,EC50,,>12.5 µg/mL
NNC(=O)c1ccc[n+](CCc2ccccc2)c1.[Br-],H37Rv,,BACTEC,inhibition,12.5 µg/mL,0%
COc1cccc(/C=N/N=C(\N)c2ccncc2)c1OC,1054,,,MIC,,256 µg/mL
NC(=O)c1cncc(-n2ccnc2)n1,Isoniazid-resistant,,,MIC,,500 µg/mL
CO[C@H]1/C=C/O[C@@]2(C)Oc3c(C)c(O)c4c(c3C2=O)C(=O)C=C(NC(=O)/C(C)=C\C=C\[C@H](C)[C@H]2OC(C)(C)O[C@@H]([C@@H](C)[C@H](OC(C)=O)[C@@H]1C)[C@@H]2C)C4=O,H37Rv,,BACTEC,MIC,,0.8 µg/mL
Cc1c[nH]c(C(=O)NN)c1-c1ccc2c(-c3ccccc3)nc3ccccc3n12,H37Rv,,,EC50,,<12.5 µg/mL
CCN(CC)C(=O)C1CCCN(c2cc3c(cc2[N+](=O)[O-])c(=O)c(C(=O)O)cn3C(C)(C)C)C1,ATCC35801,,,MIC,,0.43 µM
Brc1ccc(-c2csc(-n3cccc3)n2)cc1,H37Rv,,resazurin,MIC,,0.8 µg/mL
Cc1ccc(/C=N/N=C(\N)c2ccncc2)cc1,1054,,,MIC,,8 µg/mL
Cc1ccc(C)n1-c1ccc(C(=O)NN2C(=O)CCC2=O)cc1,H37Rv,,resazurin,MIC,,12.5 µg/mL
CO/C(=N\N=C\c1cccc(C(C)(F)F)c1)c1ccncc1,16PI,,,MIC,,>20 µg/mL
Cn1cnc2c(NS(=O)(=O)c3ccccc3Cl)nc(Cl)cc21,H37Rv,,visual reading,MIC99,,25 µM
CO/C(=N\N=C\c1ccc(OC)c(F)c1)c1ccncc1,6 PI,,,MIC,,>20 µg/mL
CC(C)c1cc(O)c2c(c1O)[C@H]1C[C@H]3C(C)(C)CCC[C@]23C(=O)O1,H37Rv,,BACTEC,inhibition,12.5 µg/mL,3%
CO[C@H]1/C=C/O[C@@]2(C)Oc3c(C)c(O)c4c(O)c(c5c(c4c3C2=O)NC2(CCN(CC(C)C)CC2)N=5)=NC(=O)/C(C)=C\C=C\[C@H](C)[C@H](O)[C@@H](C)[C@@H](O)[C@@H](C)[C@H](OC(C)=O)[C@@H]1C,1 isolates (His526Asp),,,MIC,,>5 µg/mL
CC(=O)Nc1ccc(OCC(=O)N/N=C/C=C/c2ccccc2)cc1,H37Rv,,,inhibition,12.5 µg/mL,4%
CCCCC(CC)CN1CN(CC(CC)CCCC)CC(C)(NCCNC(CC)CC)C1,,,,MIC,,25 µM
Cc1ccc(NC(=O)Nc2nc(Cl)cc3c2ncn3C)cc1,H37Rv,,visual reading,MIC99,,12.5 µM
CC(CNC[C@@H]1CC[C@H]2C[C@@H]1C2(C)C)NC1CCCCCCC1,,,,MIC,,25 µM
Cc1cc(NCC(O)C(O)C(O)CO)c(C(=O)NN)cc1C,H37Rv,,BACTEC,inhibition,12.5 µg/mL,6%
C[C@H]1[C@H](C)CC[C@]2(CO)CC[C@]3(C)C(=CC[C@@H]4[C@@]5(C)CC[C@H](O)C(C)(C)[C@@H]5CC[C@]43C)[C@H]12,H37Rv,,,MIC,,32 µM
OCC1=C[C@@H](O)[C@@H]2C=CO[C@@H](O[C@@H]3O[C@H](CO)[C@@H](O)[C@H](O)[C@H]3O)[C@H]12,H37Rv,,BACTEC,inhibition,12.5 µg/mL,22%
N/C(=N\N=C\c1ccccc1)c1ccncc1,1481,,,MIC,,32 µg/mL
CC(=O)Nc1ccc(OCC(=O)NN2C(=O)CSC2c2ccc(Cl)cc2Cl)cc1,H37Rv,,,EC50,,>12.5 µg/mL
Cn1cnc2c(NC(=O)c3ccc(Cl)cc3)nc(Cl)cc21,H37Rv,,visual reading,MIC99,,12.5 µM
O=C(NN1C(=O)c2cccc([N+](=O)[O-])c2C1=O)c1ccc(-n2cccc2)cc1,H37Rv,,resazurin,MIC,,3.125 µg/mL
CC1CN(c2cncc(C(N)=S)n2)CC(C)O1,Capreomycin-resistant,,,MIC,,62.5 µg/mL
Cc1ccc(C)n1-c1nc(-c2ccc(O)cc2)cs1,H37Rv,,resazurin,MIC,,12.5 µg/mL
Cn1cc(NC(=O)c2cc(NC(=O)CCCCCC(=O)Nc3cc(C(=O)Nc4cc(C(=O)NCCC(N)=[NH2+])n(C)c4)n(C)c3)cn2C)cc1C(=O)NCCC(N)=[NH2+],H37Rv,VERO,BACTEC,MIC,,12.5 µg/mL
C=C(C)[C@@H]1CC[C@]2(C(=O)O)CC[C@]3(C)[C@H](CC[C@@H]4[C@@]5(C)CC[C@H](O)C(C)(C)[C@@H]5CC[C@]43C)[C@@H]12,H37Rv,,,MIC,,32 µM
O=[N+]([O-])c1cccc(-c2csc(-n3cccc3)n2)c1,H37Rv,,resazurin,MIC,,0.8 µg/mL
CCOC(=O)c1c[nH]c(C(=O)OCC)c1-c1cc2c(-c3ccccc3)nc3ccccc3n2c1,H37Rv,,,inhibition,12.5 µg/mL,89%
CCN(CC)CCOC(=O)c1c2nc3c(C(=O)OCCN(CC)CC)ccc(C)c3oc-2c(C)c(=O)c1N,H37Rv,,BACTEC,MIC bound,,>12.5 µg/mL
C=C1C(=O)O[C@@H]2/C=C(\C)CC[C@H]3OC3(C)CC[C@@H]12,H37Rv,,,MIC,,64 µg/mL
O=C(c1ccccc1)N1C(=S)N(c2ccccn2)C(=Nc2ccccc2)C1=Nc1ccccc1,H37Rv,,BACTEC,MIC bound,,>12.5 µg/mL
CC(=O)Nc1ccc(OCC(=O)NN2C(=O)CSC2c2ccccc2O)cc1,H37Rv,,,EC50,,>12.5 µg/mL
COc1ccccc1C=NNC(=O)c1cnc2c(ccc3[nH]c(Cl)cc(C)c32)c1=O,H37Rv,,,MIC,,250 µg/mL
CCCCCC(C)NCCNC[C@]1(C)CCC[C@]2(C)c3ccc(C(C)C)cc3CC[C@@H]12,,,,MIC,,12.5 µM
N/C(=N\N=C\c1ccc(Br)cc1)c1ccncc1,1342,,,MIC,,32 µg/mL
O=C1OC2=C(c3ccccc3)C(=O)OC2=C1c1ccccc1,H37Rv,,BACTEC,MIC,,≥128 µg/mL
COc1ccc(OC)c(/C=N/N=C(\N)c2ccncc2)c1,1481,,,MIC,,128 µg/mL
O=C(O)c1cn2c(n1)CN(c1cc3c(cc1[N+](=O)[O-])c(=O)c(C(=O)O)cn3-c1ccc(F)cc1F)CC2,ATCC35801,,,MIC,,12.9 µM
Cc1c[nH]c(C(=O)NN)c1-c1cc2c(-c3ccccc3)nc3ccccc3n2c1,H37Rv,,,inhibition,12.5 µg/mL,98%
C/C(=N\NC(=O)c1ccncc1)c1cccc(Cl)c1,H37Rv,,,MIC,,>20 µg/mL
Nc1nc(-c2ccccc2)nc2sc3c(c12)CCCC3,H37Rv,,BACTEC,inhibition,12.5 µg/mL,20%
Cc1ccc(C)n1-c1nc(-c2cccc([N+](=O)[O-])c2)cs1,H37Rv,,resazurin,MIC,,0.8 µg/mL
OC[C@H]1O[C@@H](n2cnc3c2NC=NC[C@H]3O)[C@H](O)[C@@H]1O,H37Rv,,BACTEC,MIC bound,,>12.5 µg/mL
COc1cc(C=NNC(=O)c2cnc3c(ccc4[nH]c(Cl)cc(C)c43)c2=O)ccc1O,H37Rv,,,MIC,,500 µg/mL
O=C1C=C(C2OC(CI)C(O)C2O)C(=O)N1,H37Rv,,BACTEC,inhibition,12.5 µg/mL,17%
CC(C)(C)n1cc(C(=O)O)c(=O)c2cc(F)c(N3CCN(C(=O)C4COc5ccccc5O4)CC3)cc21,ATCC35801,,,MIC,,3.06 µM
O=[N+]([O-])c1ccc(CS(=O)(=O)c2ccccc2)o1,H37Rv,,BACTEC,MIC,,≥12.5 µg/mL
CO[C@H]1/C=C/O[C@@]2(C)Oc3c(C)c(O)c4c(=O)c(c5oc6cc(N7CCN(CC(C)C)CC7)cc(=O)c6nc5c4c3=C2O)NC(=O)/C(C)=C\C=C\[C@H](C)[C@H](O)[C@@H](C)[C@@H](O)[C@@H](C)[C@H](OC(C)=O)[C@@H]1C,33 (rifampicin-resistant),,,MIC,,0.125 µg/mL
CO/C(=N\N=C\c1cc(OC)ccc1OC)c1ccncc1,16PI,,,MIC,,>20 µg/mL
CC(CNCCNC(C)(C)CC(C)(C)C)c1ccccc1,,,,MIC,,50 µM
COC(=O)c1cc([O-])c2sc(C)c(C)[n+]2n1,H37Rv,,BACTEC,inhibition,12.5 µg/mL,0%
COc1c(N2CC[C@@H](C(C)(C)N)C2)c(F)cc2c(=O)c3c(=O)[nH]sc3n(C3CC3)c12,Multidrug-resistant isolate 9,,,MIC,,0.06 µg/mL
COc1cc(O)c2c(=O)c(OC)c(-c3ccc(O)cc3)oc2c1,H37Rv,,BACTEC,EC50,,>100 µg/mL
Cn1cnc2c(NS(=O)(=O)c3ccccc3F)nc(Cl)cc21,H37Rv,,visual reading,MIC99,,6.5 µM
NC(=S)NNC(=O)/C(=C/c1ccc(/C=C(\NC(=O)c2ccccc2)C(=O)NNC(N)=S)cc1)NC(=O)c1ccccc1,H37Rv,,,MIC,,>12.5 µg/mL
NC(=O)c1cnccn1,H37Rv,,,MIC,,100 µg/mL

For reference, 5 entries again:

{"compound": "COc1c(N2CCNC(C)C2)c(F)cc2c(=O)c(C(=O)O)cn(C3CC3)c12", "strain or isolate": "102 strains", "measure": "MIC", "value": "2 µg/mL"}
{"compound": "N/C(=N\\N=C\\c1ccccc1)c1ccncc1", "strain or isolate": "1481", "measure": "MIC", "value": "32 µg/mL"}
{"compound": "Cn1cnc2c(NS(=O)(=O)c3ccccc3Cl)nc(Cl)cc21", "strain or isolate": "H37Rv", "read by": "visual reading", "measure": "MIC99", "value": "25 µM"}
{"compound": "COc1ccc(OC)c(/C=N/N=C(\\N)c2ccncc2)c1", "strain or isolate": "1481", "measure": "MIC", "value": "128 µg/mL"}
{"compound": "Cc1cc(Cl)[nH]c2ccc3c(=O)c(C(=O)NN=Cc4ccccc4O)cnc3c12", "strain or isolate": "H37Rv", "measure": "MIC", "value": "200 µg/mL"}

Percent inhibition refers to the dose given; in toxicity tests it is the harm to the cells. Rows are shuffled and stem from different studies. A number after MIC or MFC names an inhibition level or a share of isolates. An empty or dashed field is not shown. ECn: concentration that inhibits the pathogen or its effect by n%.